In PubChem BioAssay AID651602 (The Scripps Research Institute Molecular Screening Center, 2012):
The entries are a selection whose mix differs from that of the whole data set. The source made the active and inactive calls. Cut-off read from the data, not from the text of the source: active = inhibition above about 11%; inactive = the rest.

Assay: reduced absorbance of E. coli cultures with phage – HTS, RecBCD inhibitor project, primary screen (AID 651602)
Conditions: growth absorbance, at 11.9 µM, active compounds read high

Row | SMILES | inhibition
1 | CN(C(=O)Cc1ccccc1)C1CC[C@@]2(CCCO2)C[C@@H]1N1CCCC1 (stereo partly specified) | inactive: 0.53%
2 | CCN(N=Nc1nonc1N)c1nonc1N | inactive: 2.68%
3 | Nc1cccc2ccc([As](=O)(O)O)cc12 | inactive: -0.16%
4 | O=C(O)c1ccccc1[As](=O)(O)O | active: 24%
5 | CC(=O)Nc1ccc([As](=O)(O)O)cc1 | inactive: 0.48%
6 | CCCC1OP(N)(=O)OCC1CC (stereo unspecified) | inactive: 3.33%
7 | CN(C)P(=O)(N(C)C)n1c(Nc2ccccc2)nnc1-c1ccccc1 | inactive: 1.91%
8 | O=P(Nc1nc2ccc(Cl)cc2s1)(c1ccccc1)c1ccccc1 | inactive: -0.08%
9 | CCOP(=O)(Nc1ccccc1)OCC | inactive: 2.52%
10 | Cc1cc(SC(NC(=O)c2ccc(F)cc2)C(Cl)(Cl)Cl)ncn1 (stereo unspecified) | inactive: -0.45%
11 | CN(C(=O)Cc1ccc(Cl)c(Cl)c1)[C@H]1CCCC[C@@H]1N1CCCC1 | inactive: 3.65%
12 | Cc1ccc(NP(=O)(Oc2ccccc2F)Oc2ccccc2F)nc1 | inactive: 4.68%
13 | CCn1c(=O)n(C2CCN(CC3CCCCCCC3)C[C@H]2CO)c2ccccc21 (stereo partly specified) | inactive: 2.67%
14 | CC(C)CC(=O)NC(Sc1ccc(Cl)cc1)C(Cl)(Cl)Cl (stereo unspecified) | inactive: -0.62%
15 | Nc1cc(N)c2nonc2c1[N+](=O)[O-] | inactive: 2.85%
16 | Oc1ccccc1CNc1ccccn1 | inactive: 1.53%
17 | O=C(NC(Sc1ccncn1)C(Cl)(Cl)Cl)c1ccccc1 (stereo unspecified) | inactive: 4.06%
18 | NC(=O)c1cc([N+](=O)[O-])cc([N+](=O)[O-])c1N | inactive: 4.24%
19 | CN(C(=O)Cc1ccc(Cl)c(Cl)c1)[C@H]1CCCC[C@H]1N1CCCC1 | inactive: 2.39%
20 | Cc1ccc(N/C(=N/P(=O)(N2CCOCC2)N2CCOCC2)N2CCOCC2)cc1 | inactive: 4.06%
21 | COc1ccccc1OP(=O)(Nc1ccc(C)cn1)Oc1ccccc1OC | inactive: 2.82%
22 | Cc1ccc(OP(=O)(Nc2nccs2)Oc2ccc(C)cc2)cc1 | inactive: -3.91%
23 | Clc1ccc(Cl)c(NC2=NCC(CBr)S2)c1 (stereo unspecified) | inactive: 4.8%
24 | CN1CCCC(OC(=O)C(c2ccccc2)c2ccccc2)C1 (stereo unspecified) | inactive: 0.84%
25 | Nc1ccc([As](=O)(O)c2ccc(N)cc2)cc1 | inactive: 0.31%
26 | C[N+]1=C2C=CC=CC=C2SC12C([N+](=O)[O-])=CC([N+](=O)[O-])=C[C-]2[N+](=O)[O-] (stereo unspecified) | inactive: 4.22%

Row | SMILES | inhibition
27 | CCN(/C(=N/P(=O)(N1CCOCC1)N1CCOCC1)N1CCOCC1)c1ccc(OC)cc1 | inactive: 3.09%
28 | CC(C)=N/N=C(\N)N[N+](=O)[O-] | inactive: 0%
29 | CC(C)c1nc(Nc2ccccc2)n(P(=O)(N(C)C)N(C)C)n1 | inactive: 2.4%
30 | CN(C)C(=O)OCCc1n(C)cc[n+]1C | inactive: 3.7%
31 | c1cc(-c2nn[nH]n2)ccc1-c1nn[nH]n1 | inactive: 3.03%
32 | CC1CCN(C(=O)Oc2c(Cl)cc(Cl)c3cccnc23)CC1 | inactive: 3.43%
33 | COc1ccc(C2=NCC(CBr)S2)cc1 (stereo unspecified) | inactive: 2.08%
34 | CC(=O)N1C2C3N(C(C)=O)C1C1N(C(C)=O)C(C(N1C(C)=O)N3C(C)=O)N2C(C)=O | inactive: 0.37%
35 | O=[N+]([O-])c1cccc2n[nH]nc12 | active: 19.8%
36 | Cc1ccc(NP(=O)(Oc2ccccc2)Oc2ccccc2)nc1 | inactive: 1.37%
37 | O=[N+]([O-])c1cc([N+](=O)[O-])c(CCNc2ccccc2)c([N+](=O)[O-])c1 | inactive: 1.22%
38 | CCc1nc2c(n1)c1c(non1O)c1c2no[n+]1[O-] | inactive: 4.53%
39 | CC(C)(C)C(=O)NC(Sc1ccncn1)C(Cl)(Cl)Cl (stereo unspecified) | inactive: 0.92%
40 | O=[N+]([O-])c1ncn(CCn2ncnc2[N+](=O)[O-])n1 | inactive: 2.13%
41 | O=[N+]([O-])c1cccc(NC2=NCC(CBr)S2)c1 (stereo unspecified) | inactive: -2.52%
42 | COC(=O)C1(C)COP(=O)(Nc2ccccc2)OC1 (stereo unspecified) | inactive: 1.4%
43 | O=C(O)CNc1ccc([As](=O)(O)O)cc1 | inactive: 1.35%
44 | O=P1(N(CCCl)CCCl)OCCCS1 (stereo unspecified) | inactive: 3.01%
45 | O=C(Nc1cc([As](=O)(O)O)ccc1O)c1ccccc1 | inactive: 1.83%
46 | CC(=O)NC(SC(=S)N(C)C)C(Cl)(Cl)Cl (stereo unspecified) | inactive: 4.54%
47 | O=[N+]([O-])c1ncn(CCn2cnc([N+](=O)[O-])n2)n1 | inactive: 1.38%
48 | O=[As](O)(c1ccccc1)c1ccc(O)cc1 | inactive: 1.85%
49 | C/C(N)=N\P(=O)(OCc1ccccc1)OCc1ccccc1 | inactive: 2.53%
50 | Nc1ccc([As](=O)(O)c2ccc([N+](=O)[O-])cc2)cc1 | inactive: 5.14%
51 | C(Cc1nn[nH]n1)Cc1nn[nH]n1 | inactive: 1.03%
52 | O=C(OC1CN2CCC1CC2)c1cccc(Cl)c1 (stereo unspecified) | inactive: 3.28%

Row | SMILES | inhibition
53 | Nc1ccc(CCCCOc2ccccc2)cc1 | inactive: 3.25%
54 | COc1ccc(N)c([N+](=O)[O-])c1[N+](=O)[O-] | inactive: 4.9%
55 | CN(C)C1(CNC(=O)c2ccc(Cl)c(S(N)(=O)=O)c2)CCCCC1 | inactive: 0.24%
56 | O=P(Nc1ccccn1)(c1ccc(Br)cc1)c1ccc(Br)cc1 | inactive: 4.58%
57 | O=P(Nc1nc2ccccc2s1)(c1ccccc1)c1ccccc1 | inactive: -0.6%
58 | C[C@H]1OP(=O)(Oc2ccccc2)[C@H](O)[C@H](O)[C@H]1N=[N+]=[N-] (stereo partly specified) | inactive: 2.18%
59 | O=P(Nc1nccs1)(c1ccccc1)c1ccccc1 | inactive: 2.12%
60 | CC(C)C(=O)NC(Sc1ccccc1)C(Cl)(Cl)Cl (stereo unspecified) | inactive: 1.82%
61 | c1nnnn1CCn1cnnn1 | inactive: 3.17%
62 | N#C/C(=C\c1ccc(N(CCBr)CCBr)cc1)C(N)=O | inactive: 3.02%
63 | CC(=O)c1ccc(N2CC2c2ccncc2)cc1 (stereo unspecified) | inactive: 2.3%
64 | COC(=O)C1(C)COP(=O)(NCc2ccccc2)OC1 (stereo unspecified) | inactive: 3.42%
65 | Cc1ccccc1CN(C)C(=O)COC(=O)C(O)(c1ccccc1)c1ccccc1 | inactive: 1.31%
66 | C[C@@H]1C=CCP(=O)(Oc2ccccc2)O1 (stereo partly specified) | inactive: 2.39%
67 | C[C@H]1OP(=O)(Oc2ccccc2)C[C@@H]2O[C@@H]21 (stereo partly specified) | inactive: -0.4%
68 | CC(=O)Nc1ccc([As](=O)(O)O)c(O)c1 | inactive: -1.99%
69 | CC(=O)Nc1ccc(Oc2c([N+](=O)[O-])cc([N+](=O)[O-])cc2[N+](=O)[O-])cc1 | inactive: 2.89%
70 | O=P1(Nc2nc3ccc(Cl)cc3s2)COc2ccccc2O1 (stereo unspecified) | inactive: 1.85%
71 | CCOc1ccc(C2=NCC(CBr)S2)cc1 (stereo unspecified) | inactive: 5.16%
72 | CCc1cc(O)c([N+](=O)[O-])c(C)c1[N+](=O)[O-] | inactive: 2.09%
73 | CC(C)(C)C(=O)NC(Sc1ccccc1)C(Cl)(Cl)Cl (stereo unspecified) | inactive: 2.03%
74 | COC(=O)c1cc2c(s1)N=C(c1ccccc1)N(C)P2(=O)N1CCOCC1 (stereo unspecified) | inactive: 2.01%
75 | CC(=O)NC(SC(=S)N(CC(C)C)CC(C)C)C(Cl)(Cl)Cl (stereo unspecified) | inactive: 1.4%
76 | Cc1ccc(OP(=O)(Nc2ccccn2)Oc2ccc(C)cc2)cc1 | inactive: 1.39%
77 | O=C(OC1CN2CCC1CC2)c1ccccc1 (stereo unspecified) | inactive: 1.67%
78 | CCC(=O)N1C2C3N(C(=O)CC)C1C1N(C(=O)CC)C(C(N1C(=O)CC)N3C(=O)CC)N2C(=O)CC | inactive: 3.74%

Row | SMILES | inhibition
79 | Cc1ccccc1OP(=O)(Nc1ccccn1)Oc1ccccc1C | inactive: -0.31%
80 | CC(NC(=O)COC(=O)C(O)(c1ccccc1)c1ccccc1)c1ccccc1 (stereo unspecified) | inactive: 6.11%
81 | CN(C)C(=O)Oc1noc2ccccc12 | inactive: 2.77%
82 | O=c1c2cc([N+](=O)[O-])ccc2[nH]c2c([N+](=O)[O-])cc([N+](=O)[O-])cc12 | inactive: 6.72%
83 | O=C(NC1CCS(=O)(=O)C1)NP(=S)(Oc1ccccc1)Oc1ccccc1 (stereo unspecified) | inactive: 2.48%
84 | CCNC(=S)/N=C(\N)N[N+](=O)[O-] | inactive: 3.96%
85 | c1ccc(-c2nn[nH]n2)c(-c2nn[nH]n2)c1 | inactive: 3.96%
86 | Cc1ccc(NP(=O)(Oc2cccc(C)c2)Oc2cccc(C)c2)nc1 | inactive: -1.32%
87 | O=P1(N(CCCl)CCCl)OCCC2CCCCN21 (stereo unspecified) | inactive: 2.22%
88 | NC(=O)Nc1ccc([As](=O)(O)O)cc1 | inactive: 0.16%
89 | CN(C)C(=O)c1cc([N+](=O)[O-])cc2c1-c1c(cc([N+](=O)[O-])cc1[N+](=O)[O-])C2=O | inactive: 0.62%
90 | O=[N+]([O-])c1ccc2c(c1)nnn2O | inactive: 2.97%
91 | CN(C(=O)Cc1ccc(Cl)c(Cl)c1)[C@H]1CC[C@@]2(CCCO2)C[C@@H]1N1CCCC1 | inactive: 5.32%
92 | N#CCCN(C(=O)COC(=O)C(O)(c1ccccc1)c1ccccc1)c1ccc(F)cc1 | inactive: 0.77%
93 | CN(C(=O)Cc1ccccc1)[C@@H]1CC[C@]2(CCCO2)C[C@H]1N1CCCC1 | inactive: 1.78%
94 | CCOP1(=S)c2c(C)nn(CCC#N)c2N=C(c2ccc(F)cc2)N1C (stereo unspecified) | inactive: -4.7%
95 | CCOP1(=S)c2c(C)nn(CCC#N)c2N=C(c2ccccc2F)N1C (stereo unspecified) | inactive: 1.56%
96 | O=P(Nc1nccs1)(Oc1ccccc1)Oc1ccccc1 | inactive: 2.17%
97 | O=C(O)COc1ccc([As](=O)(O)O)cc1[N+](=O)[O-] | inactive: 1.83%
98 | Nc1ccccc1[As](=O)(O)c1ccccc1 | inactive: 2.92%
99 | CCCOP(=S)(Nc1nc(N)cc(=O)[nH]1)OCCC | inactive: 3.65%
100 | Cc1ccc(NCCc2c([N+](=O)[O-])cc([N+](=O)[O-])cc2[N+](=O)[O-])cc1 | inactive: 0.87%
101 | Nc1cccc2c([As](=O)(O)O)cccc12 | inactive: 1.43%
